{"source": "patent US7964624B1", "about": "“Inhibitors of serine proteases” (priority 2005, dated 2011)", "note": "Structures were worked out from names or drawings and are uncertain."}
{"target": "HCV NS3 protease domain (Hepatitis C virus genotype 1b, UniProt Q9WMX2)", "experiment": "HCV NS3 Protease Domain Peptide Cleavage Assay (Enzyme Assay 1), apparent Ki", "settings": "read-out: Enzyme Assay 1 (HCV NS3 Protease Domain Peptide Cleavage Assay) activity; apparent Ki class", "description": "A DNA fragment encoding residues Ala^1-Ser^181 of the HCV NS3 protease (GenBank CAB46913) was obtained by PCR from the HCV Con1 replicon plasmid, I377neo/NS3-3′/wt (re-named as pBR322-HCV-Neo in this study) [V. Lohmann et al., Science, 285, pp. 110-113 (1999)] and inserted into pBEV11 (S. Chamber, et al., personal communication) for expression of the HCV proteins with a C-terminal hexa-histidine tag in E. coli. All constructs were confirmed by sequencing.\nThe expression constructs for the HCV NS3 serine protease domain was transformed into BL21/DE3 pLysS E. coli cells (Stratagene). Freshly transformed cells were grown at 37° C. in a BHI medium (Difco Laboratories) pplemented with 100 μg/mL carbenicillin and 35 μg/mL chloramphenicol to an optical density of 0.75 at 600 nm. Induction with 1 mM IPTG was performed for four hours at 24° C. The cell paste was harvested by centrifugation and flash frozen at −80° C. prior to protein purification. […]\nThe SMSY product was separated from substrate and KK4A using a microbore separation method. […] The SMSY product peak was quantitated using the data collected at […].\nTo evaluate apparent Ki values, all components except the test compound and substrate were pre-incubated for 5-10 minutes at room temperature. […] At the end of the reaction the mixture was quenched, and the extent of reaction was determined as described above. […]", "units": {"Ki": "nM"}}
{"smiles": "CCC[C@H](NC(=O)[C@@H]1C[C@]2(CC(c3cccc(Cl)c3)=NO2)CN1C(=O)[C@@H](NC(=O)NCC(F)F)C(C)(C)C)C(=O)C(=O)NC1CC1", "Ki": "< 100"}
{"smiles": "CCC[C@H](NC(=O)[C@@H]1C[C@]2(CC(c3cccc(Cl)c3)=NO2)CN1C(=O)[C@@H](NS(=O)(=O)c1ccc(C)cc1)c1ccccc1)C(=O)C(=O)NC1CC1", "Ki": "100 to 500"}
{"target": "full-length hepatitis C viral protein NS3•4A (Hepatitis C virus genotype 1a, UniProt P27958)", "experiment": "HCV NS3 Peptide Cleavage Assay (Enzyme Assay 2), apparent Ki", "settings": "read-out: Enzyme Assay 2 (HCV NS3 Peptide Cleavage Assay) activity; apparent Ki class", "description": "(§1) Using standard recombinant DNA techniques, a cDNA fragment encoding the sequence for NS3 and NS4A, residues Ala1027 to Cys1711 from the HCV sub-type strain 1a, containing an N-terminal hexa-histidine sequence, was cloned into the baculoviral transfer vector pVL1392 (Webb N R and Summers M D (1990) Expression of proteins using recombinant baculoviruses, Techniques 2:173-188). […] The transfected insect cells containing recombinant baculovirus clones were subsequently isolated by plaque purification. High-titer clonal baculovirus was routinely used to infect SD insect cells for protein production. In production, Sf9 cells were grown at 27° C. until they reached a density of 2.0×10^6 cells/ml. At this point, the insect cells were infected with virus. After 72 hours or when the cell viability was between 70-80% the culture was harvested and the cells were ready for purification. The NS3•4A protein (SEQ ID NO:1) was purified as follows. Cell paste was thawed in at least five volumes of Lysis Buffer (50 mM Na2HPO4 pH 8.0, 10% Glycerol, 300 mM NaCl, 5 mM β-mercaptoethanol, 0.2 mM PMSF, 2.5 μg/ml Leupeptin, 1.0 μg/mlE64, 2.0 μg/ml Pepstatin) per gram of cell paste. The cell paste was then homogenized on ice using a Dounce homogenizer. The cells were next mechanically disrupted by passing once through a microfluidizer (Microfluidics Corporation, Newton, Mass.), and the cell lysate was collected on ice. The cell lysates was centrifuged at 100,000×g for 30 minutes at 4° C. and the supernatants were decanted. Optionally, the pellets were resuspended in wash buffer (Lysis Buffer+0.1% β-octyl glucopyranoside), homogenized using a Dounce homogenizer and centrifuged at 100,000×g for 30 minutes at 4° C. Insoluble NS3° 4A was extracted from the pellets by resuspending in Extraction Buffer (Lysis Buffer+0.5% lauryl maltoside) using 2.5 ml/g cell paste. The mixture was homogenized using a Dounce homogenizer and mixed at 4° C. for three hours or more. The mixture was centrifuged at 100,000×g for 30 minutes at 4° C. The supernatants were decanted and pooled. The NS3•4A protein was further purified using Nickel-NTA metal affinity chromatography. Imidazole from a 2 M stock, pH 8.0, solution was added to the pooled supernatants so that the final concentration of imidazole was 10 mM. The supernatants were incubated batchwise overnight at 4° C. with Nickel-NTA affinity resin that had been pre-equilibrated with Lysis Buffer+10 mM imidazole. 1 ml of resin per 5 μg of expected NS3-4A was used. The resin was next settled by gravity or by centrifugation at 500×g for five minutes. The resin was next poured into a gravity flow column and washed with 10 or more column volumes of Nickel Wash Buffer (Lysis Buffer+0.1% lauryl maltoside+10 mM imidazole). The column was next eluted with three to four column volumes of Nickel Elution Buffer (Nickel Wash Buffer+300 mM imidazole). The elution fractions were collected on ice and evaluated using SDS-PAGE. To prevent NS3-4A proteolysis, 100 μM DFP protease inhibitor was added to gel samples before adding SDS sample buffer and boiling. The peak fractions were pooled and protein concentration was determined by measuring absorbance at 280 ηm and by dividing by the extinction coefficient (e), which for NS3•4A is 1.01. The NS3•4A was purified further using gel filtration chromatography. A Superdex 200 26/60 column was equilibrated with Superdex Buffer (20 mM HEPES pH 8.0, 10% glycerol, 300 mM NaCl, 10 mM β-mercaptoethanol, 0.05% lauryl maltoside) at a rate of 3 ml/min. The nickel purified NS3•4A was concentrated in a Centriprep 30 to greater than 2 mg/ml, if necessary, and was filtered through a 0.2 μm syringe filter and up to 10 ml was loaded onto the Superdex 200 column. After 0.3 column volumes passed through, 4-5 ml fractions were collected. Fractions were evaluated by SDS-PAGE. NS3•4A protein elutes in two peaks. Peak 1 contains aggregated NS3•4A and peak 2 contains active protein. The fractions of peak 2 were pooled, aliquoted and frozen at −70° C. […]", "units": {"Ki": "nM"}}
{"smiles": "CNC(=O)C(=O)[C@H](CC1CC1)NC(=O)[C@@H]1C[C@]2(CC(c3cccc(Cl)c3)=NO2)CN1C(=O)[C@@H](NC(=O)O[C@@H]1CC2CCC1C2)C(C)(C)C", "note": "(stereo partly shown)", "Ki": "< 100"}
{"smiles": "CCC[C@@H](NC(=O)[C@@H]1C[C@]2(CC(c3cc(C)c(OC)c(C)c3)=NO2)CN1C(=O)[C@@H](NC(=O)OC1CCCC1)C(C)(C)C)C(=O)C(N)=O", "Ki": "100 to 500"}
{"smiles": "CCC[C@H](NC(=O)[C@@H]1C[C@]2(CC(c3cccc(Cl)c3)=NO2)CN1C(=O)[C@@H](NC(=O)CC(C)(C)OC)C(C)(C)C)C(=O)C(=O)NC", "Ki": "100 to 500"}
{"smiles": "CCC[C@H](NC(=O)[C@@H]1C[C@]2(CC(c3cccc(Cl)c3)=NO2)CN1C(=O)[C@@H](NC(=O)CC1CC2CCC1C2)C(C)(C)C)C(=O)C(=O)NC1CC1", "note": "(stereo partly shown) [Compound 467]", "Ki": "< 100"}
{"smiles": "CCC[C@H](NC(=O)[C@@H]1C[C@]2(CC(c3cccc(Cl)c3OC)=NO2)CN1C(=O)[C@@H](NC(=O)OC1CCCC1)C(C)(C)C)C(=O)C(=O)NC1CC1", "Ki": "100 to 500"}
{"smiles": "CCC[C@H](NC(=O)[C@@H]1C[C@]2(CC(c3cccc(Cl)c3)=NO2)CN1C(=O)[C@@H](NS(=O)(=O)c1ccc(C)cc1)c1ccccc1)C(=O)C(=O)NC1CC1", "Ki": "100 to 500"}
{"smiles": "CCC[C@H](NC(=O)[C@@H]1C[C@]2(CC(c3cc(C)c(OC)c(C)c3)=NO2)CN1C(=O)[C@@H](NC(=O)CC1CCCCC1)C(C)(C)C)C(=O)C(=O)NC", "Ki": "< 100"}
{"target": "full-length hepatitis C viral protein NS3•4A (Hepatitis C virus genotype 1a, UniProt P27958)", "experiment": "HCV NS3 Peptide Cleavage Assay (Enzyme Assay 2), apparent Ki", "settings": "read-out: Enzyme Assay 2; HCV NS3 Peptide Cleavage Assay, apparent Ki", "description": "as §1", "units": {"Ki": "nM"}}
{"smiles": "CNC(=O)C(=O)[C@H](CC1CC1)NC(=O)[C@@H]1C[C@]2(CC(c3cc(C)c(OC)c(C)c3)=NO2)CN1C(=O)[C@@H](NC(=O)[C@@H]1C[C@H]1c1ccccc1)C(C)(C)OC", "Ki": "< 100"}
{"smiles": "CCC[C@H](NC(=O)[C@@H]1C[C@]2(CC(c3cc(C)c(OC)cc3OC)=NO2)CN1C(=O)[C@@H](NC(=O)[C@@H]1C[C@H]1c1ccccc1)C(C)(C)C)C(=O)C(=O)NC", "Ki": "< 100"}
{"smiles": "CCOc1c(C)cc(C2=NO[C@]3(C2)C[C@@H](C(=O)N[C@@H](CC2CC2)C(=O)C(N)=O)N(C(=O)[C@@H](NC(=O)OC2CCCC2)C(C)(C)C)C3)cc1C", "Ki": "< 100"}
{"smiles": "CCC[C@H](NC(=O)[C@@H]1C[C@]2(CC(c3cc(C)c(OCC)c(C)c3)=NO2)CN1C(=O)[C@@H](NC(=O)CC1CCCCC1)C(C)(C)C)C(=O)C(=O)NC", "Ki": "< 100"}
{"smiles": "CCC[C@H](NC(=O)[C@@H]1C[C@]2(CC(c3cc(C)c(OCC)c(C)c3)=NO2)CN1C(=O)[C@@H](NC(=O)OC(C)(C)C)C(C)(C)C)C(=O)C(=O)NC1CC1", "Ki": "< 100"}
{"smiles": "CCC[C@H](NC(=O)[C@@H]1C[C@]2(CC(c3cccc(Cl)c3)=NO2)CN1C(=O)[C@@H](NC(=O)C1(CC)COC1)C(C)(C)C)C(=O)C(=O)NC1CC1", "Ki": "100 to 500"}
{"smiles": "CNC(=O)C(=O)[C@H](CC1CC1)NC(=O)[C@@H]1C[C@]2(CC(c3cc(Cl)c(OC)cc3OC)=NO2)CN1C(=O)[C@@H](NC(=O)[C@@H]1C[C@H]1c1ccccc1)C(C)(C)C", "Ki": "< 100"}
{"smiles": "CCC[C@H](NC(=O)[C@@H]1C[C@]2(CC(c3cc(C)c(OCC)c(C)c3)=NO2)CN1C(=O)[C@@H](NC(=O)OC(C)(C)C)C(C)(C)C)C(=O)C(=O)NC", "Ki": "< 100"}
{"smiles": "CNC(=O)C(=O)C(CC1CC1)NC(=O)C1CC2(CC(c3cc(C)c(OC)c(C)c3)=NO2)CN1C(=O)C(NC(=O)C1CC1c1c[nH]cn1)C(C)(C)C", "note": "(stereo not shown)", "Ki": "< 100"}
{"smiles": "CCC[C@H](NC(=O)[C@@H]1C[C@]2(CC(c3cc(C)c(OC)c(Cl)c3)=NO2)CN1C(=O)[C@@H](NC(=O)[C@@H]1C[C@H]1c1ccccc1)C(C)(C)C)C(=O)C(=O)NC1CC1", "Ki": "< 100"}
